Data published in patent US20250154457A1, “T-CELLS FOR ANTI-HIV CAR-T THERAPY AND METHODS OF USE” (City of Hope, priority 2021, published 2025).

Tested on: 8e5.GFP
Settings: 6TG treated vs non-treated enrichment anti-HIV CAR T-cells, n=3

Nc1nc2nc[nH]c2c(=S)[nH]1 [6TG, 6-thioguanine]
cytotoxicity: no difference in cytotoxicity
